The test system of series [1] is Cdc13 (CST subunit) + Stn1 + Ten1. Nature of the series: EMSA. To be noted: EMSA: 10 mM Tris-HCl pH 8.0, 2 mM MgCl2, 1 mM spermidine, 1 mM DTT, 10% glycerol, 22 C, recombinant protein, protein details: SUMO (N-term), FLAG (C-term),HIS6-SUMO,GST, single-stranded DNA.
Series [2] relates to Cdc13 (Candida glabrata). In words: EMSA. To be noted: EMSA: 10 mM Tris-HCl pH 8.0, 2 mM MgCl2, 1 mM spermidine, 1 mM DTT, 10% glycerol, 22 C, recombinant protein, protein details: HIS6-SUMO (N-term), FLAG (C-term), single-stranded DNA. On the technique in general: In EMSA bound probe runs differently from free probe, usually more slowly.
Series [3] relates to Stn1 + Ten1. Nature of the series: EMSA. The conditions noted are these: various buffers; EMSA: 10 mM Tris-HCl pH 8.0, 2 mM MgCl2, 1 mM spermidine, 1 mM DTT, 10% glycerol, 22 C; recombinant protein; protein details: HIS6-SUMO,GST; label: 32P; single-stranded DNA.
Series [4] deals with Ten1 (Candida glabrata). Nature of the series: EMSA. The conditions noted are these: various buffers; EMSA: 10 mM Tris-HCl pH 8.0, 2 mM MgCl2, 1 mM spermidine, 1 mM DTT, 10% glycerol, 22 C; recombinant protein; protein details: GST; label: 32P; single-stranded DNA.
For series [5], the system named is Cdc13 (CST subunit) + Stn1 + Ten1. Nature of the series: smFRET. To be noted: 16 nM CST, about half dissociated 30 min after wash; 3' biotin on strand 2; smFRET: 20 mM Tris-HCl pH 7.5, 3 mM MgCl2, 100 mM NaCl, 1 mM DTT, 0.1 mg/ml BSA, 22 C; recombinant protein; protein details: SUMO (N-term), FLAG (C-term),HIS6-SUMO,GST; label: Cy3 near G-tail end, Cy5 5' of strand 2.

Setting [6] is: 40 nM, smear, unstable, label: unlabeled competitor or labeled probe.

Construct, isoform or probe ends are uncertain for at least one entry. For some of these results: No signal at the amounts used counts as a negative. For some of these results: At least one verdict was read from the data and is not stated in words by the source. For some of these results: The comparison behind a weaker result is the experiment's own reference, which may not be listed here.

As to TGTGGGGTCTGGGTGC [CgTELX1], the binding result in series [1] (t1/2 about 10 min (5-13), label: 32P) was “binds”; in series [2] (label: 32P), “binds”; in series [3] it was “no binding”; in series [4], “no binding”.
As to “TGTGGGGTCTGGGTGCTGTGGGGTCTGGGTGCTGTGGGGTCTGGGTGC [CgTELX3]”, the binding result in series [1] (two complexes, 15-60 nM, label: 32P) is “binds”; in series [2] (three complexes, 15-60 nM, label: 32P) it was “binds”.
On to “TTAGGATCCATGAAAACTGAAGAAGGTAAACTGGTA [R1]”, for which the binding result in series [1] (setting [6]) and in series [2] (setting [6]) was “binds more weakly” in each case.
On to “TGGCGACGGCAGCGAGGCTGTGGGGTCTGGGTGC / GCCTCGCTGCCGTCGCCA [16-nt G-tail FRET construct]”, for which the binding result in series [5] is given as “binds”.
As for “TTTTTTTTTTTTTTTTTTTTTTTTTTTTTTTTTTTTTTTTTTTTTTTTTTTTTTTTTT [(dT)58]”, the binding result in series [2] (40-80 nM, smear, unstable) is recorded as “binds more weakly”.

The values are drawn from publication PMC3536697.
